From patent publication US20140213506A1, “THYMOSIN ALPHA PEPTIDE FOR PREVENTING, REDUCING THE SEVERITY OF, AND TREATING INFECTION” (priority 2011, published 2014)
No end group written: not given here.

Chains of the proteins cited; added tags and fusions are not shown. Lines headed by an entry give the natural chain unless they say otherwise; changes in a name come on top.
UniProt P06454: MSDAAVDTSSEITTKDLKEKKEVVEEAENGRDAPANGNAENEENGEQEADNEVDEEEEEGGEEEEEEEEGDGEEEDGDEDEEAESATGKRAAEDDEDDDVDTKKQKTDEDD

Test system: H1N1 influenza
Experiment: Microneutralization (MN) test after H1N1 vaccination (Focetria) in hemodialysis patients
[1] = Day 21 MN test, Only Subjects negative at the baseline
[2] = Day 21 MN test, Only Subjects negative at the baseline (MN titer < 1:10)
[3] = Day 21 MN test, Only Subjects non-protected at the baseline
[4] = Day 21 MN test, Only Subjects received 2 doses of vaccine
[5] = Day 21 MN test, Only Subjects who received 1 vaccine dose
[6] = Day 21 MN test, Overall Population
[7] = Day 21 MN test, Overall Population, day x/day 0 geometric mean MN titer
[8] = Day 42 MN test, Only Subjects negative at the baseline
[9] = Day 42 MN test, Only Subjects non-protected at the baseline
[10] = Day 42 MN test, Only Subjects received 2 doses of vaccine
[11] = Day 42 MN test, Only Subjects who received 1 vaccine dose
[12] = Day 42 MN test, Overall Population
[13] = Day 84 MN test, Only Subjects negative at the baseline
[14] = Day 84 MN test, Only Subjects non-protected at the baseline
[15] = Day 84 MN test, Only Subjects received 2 doses of vaccine
[16] = Day 84 MN test, Only Subjects who received 1 vaccine dose
[17] = Day 84 MN test, Overall Population

## V + T3.2: H1N1 vaccine plus two injections of thymalfasin (TA1), 3.2 mg seven days prior to vaccination and on the day of vaccination (Ac-SDAAVDTSSEITTKDLKEKKEVVEEAEN; UniProt P06454 2-29, looked up)
[1]
  GMR: 2.08
[2]
  Percent with MN ≧ 1:20: 33.3%
[3]
  GMR: 2.00
  Percent with MN ≧ 1:20: 40%
  Percent with SC: 28%
[4]
  GMR: 1.00
  Percent with MN ≧ 1:20: 0%
[5]
  GMR: 2.1
  Percent with MN ≧ 1:20: 50%
  Percent with SC: 26.9%
[6]
  Percent with MN ≧ 1:20: 46.4%
  Percent with SC: 25%
[7]
  GMR: 1.95
[8]
  GMR: 1.68
  Percent with MN ≧ 1:20: 22.2%
[9]
  GMR: 1.74
  Percent with MN ≧ 1:20: 32%
  Percent with SC: 20%
[10]
  GMR: 1.00
  Percent with MN ≧ 1:20: 0%
[11]
  GMR: 1.8
  Percent with MN ≧ 1:20: 42.3%
  Percent with SC: 15.4%
[12]
  GMR: 1.72
  Percent with MN ≧ 1:20: 39.3%
  Percent with SC: 17.6%
[13]
  GMR: 1.71
  Percent with MN ≧ 1:20: 22.2%
[14]
  GMR: 1.62
  Percent with MN ≧ 1:20: 28%
  Percent with SC: 20%
[15]
  GMR: 1.00
  Percent with MN ≧ 1:20: 0%
[16]
  GMR: 1.68
  Percent with MN ≧ 1:20: 38.5%
  Percent with SC: 19.2%
[17]
  GMR: 1.62
  Percent with MN ≧ 1:20: 35.7%
  Percent with SC: 17.6%

## V + T6.4: H1N1 vaccine plus two injections of thymalfasin (TA1), 6.4 mg seven days prior to vaccination and on the day of vaccination (Ac-SDAAVDTSSEITTKDLKEKKEVVEEAEN; UniProt P06454 2-29, looked up)
[1]
  GMR: 2.88
[2]
  Percent with MN ≧ 1:20: 47.4%
[3]
  GMR: 2.65
  Percent with MN ≧ 1:20: 55.6%
  Percent with SC: 40.7%
[4]
  GMR: 1.00
  Percent with MN ≧ 1:20: 50%
[5]
  GMR: 2.61
  Percent with MN ≧ 1:20: 63.3%
  Percent with SC: 36.7%
[6]
  Percent with MN ≧ 1:20: 62.5%
  Percent with SC: 31.6%
[7]
  GMR: 2.46
[8]
  GMR: 2.54
  Percent with MN ≧ 1:20: 52.6%
[9]
  GMR: 2.42
  Percent with MN ≧ 1:20: 59.3%
  Percent with SC: 44.4%
[10]
  GMR: 1.00
  Percent with MN ≧ 1:20: 50%
[11]
  GMR: 2.46
  Percent with MN ≧ 1:20: 66.7%
  Percent with SC: 43.3%
[12]
  GMR: 2.33
  Percent with MN ≧ 1:20: 65.6%
  Percent with SC: 40.6%
[13]
  GMR: 2.42
  Percent with MN ≧ 1:20: 50%
[14]
  GMR: 2.40
  Percent with MN ≧ 1:20: 60%
  Percent with SC: 44%
[15]
  GMR: 1.19
  Percent with MN ≧ 1:20: 50%
[16]
  GMR: 2.42
  Percent with MN ≧ 1:20: 67.9%
  Percent with SC: 42.9%
[17]
  GMR: 2.32
  Percent with MN ≧ 1:20: 66.7%
  Percent with SC: 40%
